Mutational scan of HIV-1 Vif (LAI) in cells with APOBEC3G

The measurements come from Langley et al. 2025, preprint (doi:10.1101/2025.10.20.683452).

Vif of LAI (a laboratory-adapted subtype B strain), residues 12-115; positions count from the first residue of the whole protein:
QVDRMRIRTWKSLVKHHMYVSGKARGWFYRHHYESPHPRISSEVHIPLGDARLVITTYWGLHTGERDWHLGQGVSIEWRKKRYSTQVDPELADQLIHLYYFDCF

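Pooled viruses with one designed change each in Vif went through two 72 h rounds in SupT1 cells expressing APOBEC3G. Each of three replicates was sequenced after round two and set against the merged round-one pool. The overlap of vif with pol had been removed, so integrase is unaffected.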

The score is log2 enrichment against the wild-type codon: higher is better tolerated, lower is depleted. A change reads original residue, position, new residue. This list holds changes to histidine only. The median of three replicates is given. Input reads are the counts in the merged round-one pool, before selection. Not every substitution is listed. Positive scores are uncertain; some enriched variants did not exclude APOBEC3G in a separate test. Replicates agree only moderately (rank correlation about 0.4-0.65); scores from under about 50 input reads tend to be too high.

With Q12H (input reads 448) the assay gave -1.42.
With D14H (input reads 1145) the assay gave -1.58.
With I18H (input reads 409) the assay gave -0.25.
With R19H (input reads 438) the assay gave -2.50.
With T20H (input reads 1051) the assay gave -1.09.
With W21H (input reads 370) the assay gave -0.62.
With K22H (input reads 434) the assay gave -2.90.
With S23H (input reads 304) the assay gave -1.70.
With L24H (input reads 489) the assay gave -2.36.
With K26H (input reads 810) the assay gave -1.56.
With M29H (input reads 365) the assay gave -1.48.
With Y30H (input reads 396) the assay gave -0.79.
With V31H (input reads 603) the assay gave -1.36.
With S32H (input reads 29) the assay gave 0.95.
With G33H (input reads 613) the assay gave -2.43.
With K34H (input reads 58) the assay gave 0.58.
With A35H (input reads 112) the assay gave -0.81.
With R36H (input reads 992) the assay gave -1.21.
With Y40H (input reads 6440) the assay gave -1.90.
With Y44H (input reads 943) the assay gave -0.37.
With E45H (input reads 57) the assay gave 1.07.
With I51H (input reads 215) the assay gave -0.71.
With S52H (input reads 515) the assay gave -0.96.
With V55H (input reads 348) the assay gave -2.10.
With I57H (input reads 20) the assay gave -1.71.
With G60H (input reads 359) the assay gave -0.56.
With D61H (input reads 416) the assay gave -3.83.
With V65H (input reads 1590) the assay gave -1.70.
With T67H (input reads 743) the assay gave -1.54.
With T68H (input reads 1001) the assay gave -2.21.
With Y69H (input reads 451) the assay gave -3.36.
With L72H (input reads 782) the assay gave -1.20.
With E76H (input reads 23) the assay gave 0.33.
With R77H (input reads 488) the assay gave -1.96.
With D78H (input reads 747) the assay gave -2.29.

Extract of 3 entries:

- I18H (input reads 409): -0.25
- V65H (input reads 1590): -1.70
- Y30H (input reads 396): -0.79